Values quoted from earlier work as cited in patent US8093046B2, “CVN-12p1: a recombinant allosteric lectin antagonist of HIV-1 envelope gp120 interactions” (Philadelphia Health and Education Corporation d/b/c Drexel …, priority 2006, dated 2012).

Tests used:
[1] = target: T1, YU2 gp120 / mAb F105 (Human immunodeficiency virus type 1 group M subtype B, UniProt P35961); conditions: from literature; cited from earlier work
T1 construct: made in house; host or cells: gp120: Drosophila S2 cells

[2] = target: monomeric YU2 gp120 / sCD4 (Human immunodeficiency virus type 1 group M subtype B, UniProt P35961); conditions: SPR analysis; read-out: IC50, inhibition of binding of monomeric YU2 gp120 to sCD4; cited from earlier work
[3] = target: YU2 gp120 (Human immunodeficiency virus type 1 group M subtype B, UniProt P35961); conditions: read-out: Equilibrium dissociation constant KD for binding to YU2; cited from earlier work
[4] = target: monomeric YU2 gp120 / 17b (Human immunodeficiency virus type 1 group M subtype B, UniProt P35961); conditions: SPR analysis; read-out: IC50, inhibition of binding of monomeric YU2 gp120 to 17b; cited from earlier work

RINNIPWSEAMM [12p1]
Effect on F105 binding to gp120 [1]: inhibits at μM concentrations | IC50 [2]: 1.1 µM | Kd [3]: 3.6 µM | IC50 [4]: 1.6 µM
